In publication PMC6586010 (Journal of Clinical Pharmacology, 2018):

Tests used:
Study 1 = type: in vivo, human; details: for Cavg, Median (Range): study 1, estimated for maraviroc 300 mg twice daily
[1] = type: in vivo, human
[2] = cited from earlier work
[3] = cited from earlier work; remark: listed apart in the source
P‐glycoprotein = details: cited from earlier work
[4] = tested on: organic anion‐transporting polypeptide 1B1; details: cited from earlier work
[5] = part 1, maraviroc 300 mg twice daily alone
[6] = part 1, maraviroc 300 mg twice daily, cohort 1 (black PMs)
[7] = part 1, maraviroc 300 mg twice daily, cohort 2 (black IMs)
[8] = part 1, maraviroc 300 mg twice daily, cohort 3 (black EMs)
[9] = part 1, maraviroc 300 mg twice daily, cohort 4 (white PMs)
[10] = part 2, maraviroc 150 mg + darunavir/cobicistat 800/150 mg once daily, cohort 1 (black PMs)
[11] = part 2, maraviroc 150 mg + darunavir/cobicistat 800/150 mg once daily, cohort 3 (black EMs)
[12] = single dose of maraviroc 300 mg, healthy volunteers

In the case of Maraviroc, the “Cavg, Median (Range)” value (Study 1; CYP3A5 EM, all subjects) is reported as 165.2 (28.6–318.1) n = 53 ng/mL, the “Cavg, Median (Range)” value (Study 1; CYP3A5 EM, blacks) is reported as 169.6 (28.6–318.1) n = 44 ng/mL and the “Cavg, Median (Range)” value (Study 1; CYP3A5 EM, whites) is reported as 101.5 (78.3–209.6) n = 3 ng/mL. For the same substance, the “Cavg, Median (Range)” value (Study 1; CYP3A5 IM, all subjects) was 144.9 (37.0–534.5) n = 127 ng/mL, the “Cavg, Median (Range)” value (Study 1; CYP3A5 IM, blacks) was 166.0 (39.1–534.5) n = 61 ng/mL and the “Cavg, Median (Range)” value (Study 1; CYP3A5 IM, whites) was 132.4 (37.0–329.3) n = 52 ng/mL. The “Cavg, Median (Range)” value (Study 1; CYP3A5 PM, all subjects) was 137.7 (0.8–355.6) n = 314 ng/mL, the “Cavg, Median (Range)” value (Study 1; CYP3A5 PM, blacks) was 144.4 (0.8–257.9) n = 33 ng/mL and the “Cavg, Median (Range)” value (Study 1; CYP3A5 PM, whites) was 132.8 (20.9–355.6) n = 256 ng/mL. For the same substance, the “subjects with predicted Cavg ≥75 ng/mL” value (Study 1; study 1, maraviroc 300 mg twice daily, irrespective of CYP3A5 genotype or race) was “approximately 90%”, the “median estimated Cavg higher in CYP3A5*1/*1 genotype vs no CYP3A5*1 alleles” value (Study 1; study 1, subpopulation of blacks) was 17% and the “median estimated Cavg lower for EMs than for PMs” value (Study 1; study 1, whites (3 EMs)) was 24%. The “estimated median Cavg in PMs higher in black subjects compared with whites” value (Study 1; study 1 post hoc analysis) was “approximately 9%”, the “Cavg higher, black PMs compared with white PMs” value [1, 5] was 17% and the “Cavg lower, black IMs (cohort 2) vs black PMs (cohort 1)” value [1, 5] was 14%. The “adjusted geometric mean C12 lower, black EMs (cohort 3) vs black PMs (cohort 1)” value [1, 5] was 24%, the “adjusted geometric mean C12 lower, black EMs (cohort 3) vs white PMs (cohort 4)” value [1, 5] was 28% and the “adjusted geometric mean Cmax lower, black EMs (cohort 3) vs white PMs (cohort 4)” value [1, 5] was about 28%. The “AUC12, adjusted geometric mean” value [1, 6] was 3441 ng·h/mL, the “C12, adjusted geometric mean” value [1, 6] was 59.84 ng/mL and the “Cavg, adjusted geometric mean” value [1, 6] was 286.8 ng/mL. For the same substance, the “Cmax, adjusted geometric mean” value [1, 6] was 863.9 ng/mL, the “AUC12, adjusted geometric mean” value [1, 7] was 2954 ng·h/mL and the “C12, adjusted geometric mean” value [1, 7] was 63.09 ng/mL. The “Cavg, adjusted geometric mean” value [1, 7] was 246.2 ng/mL, the “Cmax, adjusted geometric mean” value [1, 7] was 754.0 ng/mL and the “AUC12, adjusted geometric mean” value [1, 8] was 2181 ng·h/mL. The “Cavg, adjusted geometric mean” value [1, 8] was 181.6 ng/mL, the “Cmax, adjusted geometric mean” value [1, 8] was 529.0 ng/mL and the “AUC12, adjusted geometric mean” value [1, 9] was 2947 ng·h/mL. For the same substance, the “C12, adjusted geometric mean” value [1, 9] was 63.10 ng/mL, the “Cavg, adjusted geometric mean” value [1, 9] was 245.8 ng/mL and the “Cmax, adjusted geometric mean” value [1, 9] was 731.0 ng/mL. The “AUC24, adjusted geometric mean” value [1, 10] was 4413 ng·h/mL, the “C24, adjusted geometric mean” value [1, 10] was 56.56 ng/mL and the “Cavg, adjusted geometric mean” value [1, 10] was 184.1 ng/mL. The “Cmax, adjusted geometric mean” value [1, 10] was 633.6 ng/mL, the “AUC24, adjusted geometric mean” value [1, 11] was 3645 ng·h/mL and the “C24, adjusted geometric mean” value [1, 11] was 56.34 ng/mL. For the same substance, the “Cavg, adjusted geometric mean” value [1, 11] was 151.7 ng/mL, the “Cmax, adjusted geometric mean” value [1, 11] was 432.9 ng/mL and the “Tmax, median (range)” value ([1]; part 2, maraviroc 150 mg once daily with darunavir/cobicistat 800/150 mg once daily) was ~3.0 (1.0 to 6.0) hours. The “adjusted geometric mean Cmax lower, black EMs (cohort 3) vs black PMs (cohort 1)” value ([1]; part 2, with darunavir/cobicistat) was about 32%, the “Cavg, median (interquartile range)” value ([2]; EM group) was 103 (90‐117) ng/mL and the “median AUC lower, EMs compared with PMs” value [2, 12] was 41%. The “median AUC lower, IMs compared with PMs” value [2, 12] was 16%, the “Absorption (predicted)” value [3] was “approximately 84%” and the first-pass extraction [3] was 60%. For the same substance, the “lower maraviroc exposure with concomitant use of efavirenz” value ([3]; efavirenz, CYP3A inducer) was 45%, the “substrate for efflux transporter P-glycoprotein” value (P‐glycoprotein) was “substrate” and the “substrate for uptake transporter organic anion-transporting polypeptide 1B1” value [4] was “substrate”.

Like-named read-outs stand apart in the source and are kept apart here.
